Here are results for one molecule from patent publication EP4563146A1 (IRBM S.P.A., priority 2023, dated 2025).

The test system of one assay is ZIKV replicon. The note with it: read-out: ZIKA Cell_Nanoluc; Vero cells with stable ZIKV replicon, 72 h, Nano-Glo readout.
In assay [1] the target is DEN2V NS2B-G4SG4-NS3 serine protease (Dengue virus type 2, UniProt Q91H74). Conditions: read-out: Dengue 2 - NS3 protease.

Regarding `COc1cccc(C23COC(C2)C3C(=O)Nc2cc(NC(=O)[N-]c3c[n+](Cc4ccccn4)no3)cc(C(F)(F)F)c2)c1` (centres unmarked), the EC50 with ZIKV replicon was 1 to 20 µM. In addition, the IC50 in assay [1] was in the range of 0.1 to 1 µM.
